Screening data, single-dose tests

Mtb cholesterol medium: 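Growth of Mycobacterium tuberculosis over 4 days (cholesterol / DPPC medium with tyloxapol); the read-out is not stated. Concentration: 50 µM. The record gives no direction; compounds that gave an IC50 in retests scored well above the rest, so higher reads as more growth inhibition. About 69,000 compounds were tested under these conditions; 0.54% (about 370) showed 50% or more at least once.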
Mtb glucose medium: 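Phenotypic screen: M. tuberculosis growth, glucose 7H9 medium, 3 days; the read-out is not stated. Concentration: 50 µM. Higher reads as more growth inhibition (inferred: compounds with an IC50 in retests scored well above the rest). Of about 69,000 compounds tested this way, about 760 (1.1%) reached 50% or more in at least one test.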

Values are the deposited “Percent Effect”, in %. The record does not define 0% and 100%; most values in the screen are far below 50% and negative numbers occur (in some assays of this library far below -100). Many other results are left out here, so strong results are more common than in the screen. Two or more numbers in one place are separate tests of the same structure; such repeats can differ widely. A dash means the value is not listed here; it may have been measured.

structure	Mtb cholesterol medium	Mtb glucose medium
O=C(NCC(O)c1cccs1)c1ccco1 (configuration not stated)	-	23.6%
O=C(NCCc1cccc(F)c1)C1(n2cnnn2)CCCCC1	-	62.84%
CCn1nc(C)cc1C(=O)NCc1cccnc1N(C)C	7.963%	2.463%
CC(C)CCCC1CN(C(=O)c2cnc[nH]2)CCO1 (configuration not stated)	-	58.44% and 5.82%
CC(C)(C)NC(=O)c1ccccc1NC(=O)c1ccncc1	-5.212%	-
COCCN(Cc1ccc(OC)nc1)Cc1cccs1	-1.578%	-7.713% and -1.307%
Cc1cc(C)cc(OCCN2CCn3c(C)nnc3C2)c1	-26.01%	-
Cn1cc(C(C)(O)CNc2ccc(Cl)c(C#N)n2)cn1 (configuration not stated)	-	-2.163%
C1CC(c2noc(C3CC3)n2)CN(Cc2noc(C3CC3)n2)C1 (configuration not stated)	9.916%	20.96%
CCCc1nc(N2CCCCC2)c2c(n1)c(C)nn2CC	-	37.3% and 28.66%
CCc1ccc(CCC(=O)NCc2nnc[nH]2)cc1	-	3.094% and -26.99%
OCC(CO)Nc1ccc2c(Cl)ccc(Cl)c2n1	-	63.05%
CN1CCN([C@@H]2CCN(CC3=Cc4cc(Cl)ccc4OC3)C[C@H]2O)CC1	-	18.38%
COc1cccc(Nc2nc(C3CCNCC3)c3ccccn23)c1.Cl	-	14.24%
Cc1cnn(C2CN(c3ccccc3S(=O)(=O)C(F)(F)F)C2)c1	50.4%	53.78%
Cc1cc(NCC2CCS(=O)(=O)C2)n2nc(C)cc2n1 (configuration not stated)	101.1%	-
CC(C)Cc1cc(C(=O)NCc2nnc[nH]2)[nH]n1	-0.1938%	-11.02% and 1.064%
Cc1ccc(CNCC2Cn3nnc(-c4cnn(C)c4)c3CO2)o1 (configuration not stated)	-	-46.43%
CN1CCCCCC1C(=O)NCCCn1ncc2ccccc21 (configuration not stated)	-8.156%	-0.5853%
Cc1cccc(N2CCC3(CCCC(=O)N3)CC2)n1.O=C(O)C(F)(F)F	73.8%	-
CCc1nnc2n1CCN(C(=O)CN(CC)CC)C2	-	102.8%
Cc1ccc(C(=O)N2CC(Oc3ccccc3C)C2)s1	61.21%	81.12%
CC(C)Nc1nc(N2CCOCC2)nc2c1CN(Cc1ccoc1)CC2	-19.56%	33.5%
CNc1nc2c(s1)C(c1ccc(F)cc1Cl)CC(=O)N2 (configuration not stated)	-	36.85%
OCC(O)CSCc1nnc(-c2ccc(Cl)cc2)o1 (configuration not stated)	7.999%	27.1%
COCCOc1cccc(CNCc2ccc(-n3cncn3)nc2)c1	-9.668%	-
COc1cccc(CCCn2cnnc2[S+](C)[O-])c1 (configuration not stated)	-	23.32%
Clc1cc(NCc2ncc[nH]2)nc2[nH]ccc12	-	57.57%
O=C(CCCn1cnnn1)N1CCC(c2ccncc2)CC1	-19.66%	-
Cc1nc(CN)cc(N2CCC(O)(c3ccc(Cl)cc3)CC2)n1	-	22.54%
Cc1ccc(N(CC(=O)N2CCCCC2)C(=O)C2CCCO2)cc1 (configuration not stated)	-1.728% and -1.361%	0.5843%
O=C(Nc1nncs1)c1ccc(O)nc1	-	-26.85%
CCCC(=O)N(CCCN1CCOCC1)c1nc2c(C)ccc(Cl)c2s1.Cl	49.91%	19.43% and 20.22%
COc1ccc(OCCN2CCCN(Cc3noc(C)n3)CC2)cc1	-16.97%	-
O=C(c1cccnc1)N(CCO)Cc1cc(Br)ccc1F	-	2.657% and 105.7%
O=S1(=O)CCCN1Cc1coc(-c2cccs2)n1	-15.95%	-2.994% and -1.886%
CC(C)Oc1ccc(CNC(=O)c2cc(C(N)=O)cs2)cc1F	-5.584%	13.97%
Cc1ccc(CN(CCCn2ccnc2)Cc2cnn(C)c2)s1.O=C(O)CC(O)(CC(=O)O)C(=O)O	-21.88%	24.54%
CCC1c2ccc(C)n2CCN1C(=O)Cn1cnc2sc(C)cc2c1=O (configuration not stated)	3.893% and 6.641%	-
Cc1nsc(C(=O)NCCc2ccc(F)cc2)n1	53.63%	57.66%
CN1CCOC(CNC(=O)Cc2ccccc2F)C1 (configuration not stated)	-	-6.099%
COc1ccc(OC)c(C2CC(=O)Nc3nc(N4CCOCC4)sc32)c1 (configuration not stated)	-	56.53%
CN1CCC(CNC(=O)c2ccc(O)nc2)c2ccccc21 (configuration not stated)	-	-4.041% and 1.481%
COC[C@@H]1CCC[C@@]12CN(C(=O)N(C)C)CCO2	-	-26.78%
O=C(c1ccc2c(c1)OCCO2)N1CCCC(n2ccnc2)C1 (configuration not stated)	-13.67%	-
Cc1ccc(CNC(=O)c2ccc(F)cc2)o1	-	51.73% and 48.4%
O=C(CCc1ccccn1)N1CCc2cc(Cl)cc(Cl)c2C1	-	7.992%
CC(NCC1CCN(CCO)CC1)c1ccc(F)c(Cl)c1 (configuration not stated)	-	-10.03%
COc1ccc(COCC(O)CN(C)c2ccc(C)cc2C)cc1 (configuration not stated)	50.28%	-
O=C(Cn1cc(Cl)cn1)Nc1ccc2c(c1)OCO2	-8.728%	-9.521%
CCc1noc(CNc2nc(-c3cccnc3)nc3c2CCNCC3)n1	12.22%	39.55%
Cc1nc(CCN)cc(N2CCOc3ccc(Cl)cc3C2)n1	-	54.98%
O=C(C1CC1)N(Cc1ccc2cc[nH]c2c1)C1CC1	-	8.002%
O=C(Cn1cccn1)NCC1(c2ccccc2)CC1	-19.73%	-3.786%
O=S(=O)(CCN1CCN(c2ccccc2O)CC1)c1ccc(Br)cc1	8.497%	21.78%
NC1(c2nc(-c3ccccc3)cc(=O)[nH]2)CCCCC1	-11.36%	-21.3% and 1.816%
Fc1ccc(CN2CCCN(Cc3cscn3)CC2)cc1	-	18.07%
NC(=O)CSCC(=O)N1CCc2cc(Cl)cc(Cl)c2C1	-	45.49%
Cc1ccc(C(=O)NCCNC(=O)c2cncnc2C(C)C)cc1F	-	-10.79%
CCNC(=O)C1CCCN(c2cccc(C(F)(F)F)n2)C1 (configuration not stated)	-	37.08%
Cc1nc(-c2cccc(N3CCC(N[C@@H]4CCOC4)CC3)c2)cs1	1.302%	24.84%
Cc1ccsc1[C@@H]1CCN(C(=O)CCOc2ccccc2)C[C@H]1O	-	-11.29% and 56.84%
Cc1[nH]ncc1CCCNC(=O)Nc1ccc2c(c1)OC1(CCCC1)O2	-	9.751% and 34.17%
c1ccc(C[C@H]2CN(Cc3nccs3)CC[C@H]2OCC2CC2)cc1	-	26.99%
CC(O)CCN(C)S(=O)(=O)Cc1ccc(Cl)c(Cl)c1 (configuration not stated)	0.6483%	9.99% and 34.95%

Repeated from the top, 5 entries:

O=C(NCC(O)c1cccs1)c1ccco1 (configuration not stated) read Mtb glucose medium: 23.6%.
O=C(NCCc1cccc(F)c1)C1(n2cnnn2)CCCCC1 read Mtb glucose medium: 62.84%.
CCn1nc(C)cc1C(=O)NCc1cccnc1N(C)C read Mtb cholesterol medium: 7.963%; Mtb glucose medium: 2.463%.
CC(C)CCCC1CN(C(=O)c2cnc[nH]2)CCO1 (configuration not stated) read Mtb glucose medium: 58.44% and 5.82%.
CC(C)(C)NC(=O)c1ccccc1NC(=O)c1ccncc1 read Mtb cholesterol medium: -5.212%.

Data taken from ChEMBL document CHEMBL3988442, “University of Dundee, Small-Polar-MMV Screening Library” (2021).